Reference: patent US20100209933

Experiments:
[1] = target: T1, MBP-p19-CBD fusion protein (Carnation Italian ringspot virus) (UniProt Q66104); assay: pull-down; conditions: chitin magnetic beads, purified recombinant protein, protein details: N-terminal MBP, C-terminal chitin-binding domain, label: 5' 32P on probe
T1 sequence: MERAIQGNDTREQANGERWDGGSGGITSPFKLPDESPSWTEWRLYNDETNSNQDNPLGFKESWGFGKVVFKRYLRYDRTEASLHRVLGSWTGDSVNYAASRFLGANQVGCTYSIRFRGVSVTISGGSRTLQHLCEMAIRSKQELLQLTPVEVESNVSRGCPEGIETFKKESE

[2] = target: T1, MBP-p19-CBD fusion protein (Carnation Italian ringspot virus); assay: EMSA; conditions: 20 mM Tris, 100 mM NaCl, 1 mM EDTA, 1 mM TCEP, pH 7; room temperature; purified recombinant protein; protein details: N-terminal MBP, C-terminal chitin-binding domain; label: FAM (p113), non-radioactive 5' P (p114); variant of miR122a/RNA probe duplex

“UGAGGUAGUAGGUUGUAUAGUU / CUAUACAACCUACUACCUCAAA [let-7a/RNA probe duplex]”: binds ([1]; same buffer, JURKAT total RNA).

“UGGAGUGUGACAAUGGUGUUUG / AACACCAUUGUCACACUCCAUA [miR122a/polyA-tail RNA probe]”: binds [2].

“UGGAGUGUGACAAUGGUGUUUG / AACACCAUUGUCACACUCCAUA [miR122a/RNA probe duplex]”: binds ([1]; 20 mM Tris, 100 mM NaCl, 1 mM EDTA, 1 mM TCEP, pH 7, BSA, room temperature).

For at least one entry, the source does not settle the construct or the ends of the probe. Protein sequences can lack the tags named with them.
